## Zika virus NS2B-NS3: effect of single substitutions on growth in cell culture

The measurements come from Ni et al. 2025 (doi:10.1038/s41467-025-63602-z).

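Pools of virus carrying all single amino acid changes were selected for growth in Huh-7.5 cells. Deep sequencing gave the change in frequency of each mutant relative to wild type, averaged over three replicate libraries (two for positions 207-308).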

Chain scanned (Zika virus MR766; NS2B from position 2 to 131, then the start of NS3):
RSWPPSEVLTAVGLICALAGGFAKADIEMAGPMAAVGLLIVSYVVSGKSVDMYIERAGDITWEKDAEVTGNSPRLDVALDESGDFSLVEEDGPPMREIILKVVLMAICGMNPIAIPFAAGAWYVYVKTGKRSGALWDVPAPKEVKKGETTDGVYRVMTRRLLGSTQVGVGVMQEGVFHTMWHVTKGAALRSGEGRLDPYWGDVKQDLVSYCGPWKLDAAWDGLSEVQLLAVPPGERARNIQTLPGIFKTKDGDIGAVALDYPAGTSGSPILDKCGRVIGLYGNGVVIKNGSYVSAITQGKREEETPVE

Scale: log2 effect, wild type = 0; the lower, the more harmful to the virus. Each entry names the wild-type residue, its position and the residue put in its place. An asterisk is a stop codon; stop codons read about -7, near the floor of the assay.

D260S gave -5.85.
D80T gave -7.25.
M33T gave -0.79.
T61V gave -0.67.
P262H gave -5.91.
T242P gave -6.50.
C211Q gave -0.92.
I246S gave -6.04.
L38N gave -5.26.
Q173V gave -4.56.
L162Y gave -2.48.
L196R gave -7.11.
A256C gave 1.82.
I240G gave -6.70.
V285P gave -5.09.
R1Q gave -8.23.
A188H gave -5.48.
V124L gave -0.15.
P94E gave -1.21.
L75* gave -7.97.
P93W gave -4.11.
E55C gave -1.91.
I107T gave -2.27.
I270D gave -3.21.
K300T gave -4.77.
V124S gave -5.77.
D80V gave -7.07.
S132Y gave -6.10.
G152T gave -6.67.
D151S gave -2.35.
R160Q gave -3.59.
A23H gave -0.76.
Q298P gave -6.08.
D260Y gave -4.86.
V153M gave -5.44.
V286C gave -5.11.
G222A gave -6.75.
G58N gave -5.97.
P116Q gave -6.57.
S72A gave -1.45.
R74M gave -0.62.
V183Q gave -4.54.
Y210K gave -7.10.
Y210C gave -5.95.
S294V gave -5.54.
S132T gave -7.03.
G194D gave -5.58.
G129K gave -4.73.
K127W gave -6.00.
K248L gave -3.94.
I15L gave -1.10.
D137H gave -6.12.
K300S gave -5.27.
V103R gave -6.29.
T249M gave 1.17.
A66W gave -6.28.

The first 5 entries again:

{"change": "D260S", "log2 growth effect": -5.85}
{"change": "D80T", "log2 growth effect": -7.25}
{"change": "M33T", "log2 growth effect": -0.79}
{"change": "T61V", "log2 growth effect": -0.67}
{"change": "P262H", "log2 growth effect": -5.91}

The authors count -1 or higher as tolerated. Position 1 is the last residue of NS2A. Positions 1-103, 104-206 and 207-308 were made and measured as separate libraries. Six mutants with high scores were retested singly and none clearly outgrew wild type, so positive values are not proof of better growth.